Anti-infective test results gathered from many reports (values: NIAID ChemDB through PubChem).

All rows: growth or infection tests; species: Candida albicans

a–b is a range or a potency band. Inhibition is in % at the dose shown (toxicity tests: loss of growth or viability). An empty or dashed field is not shown. Zone: diameter of growth inhibition. Lines come from different laboratories, so protocols vary. ECn is the concentration giving n% inhibition of infection, replication or growth. A number after MIC or MFC names an inhibition level or a share of isolates.

{"compound": "Fc1cccc(-c2nnc(CN3CCC(n4nc5ccccc5n4)CC3)o2)c1F", "dose": "600 µg/mL", "endpoint": "zone", "result": "5.25 mm"}
{"compound": "Cc1cc(CN(C)C)c(C)n1-c1ccc(Cl)cc1", "strain or isolate": "20 strains", "endpoint": "Mean MIC", "result": "200 µg/mL"}
{"compound": "CCCCCCOC[N+](C)(C)Cc1cc(N=Nc2ccc(C)cc2)ccc1O", "endpoint": "MBC", "result": "38 µM"}
{"compound": "CCC(C)CCCCCCCCCCC(=O)N[C@H]1C[C@@H](O)[C@@H](Sc2ccccc2)NC(=O)C2[C@@H](O)[C@@H](C)CN2C(=O)C(CO)NC(=O)C([C@H](O)C(Sc2ccccc2)c2ccc(O)cc2)NC(=O)NC(=O)[C@@H]2C[C@@H](O)CN2C(=O)[C@H]([C@@H](C)O)NC1=O", "read by": "agar", "dose": "5 mg/mL", "strain or isolate": "IV", "endpoint": "zone", "result": "18 mm"}
{"compound": "Cc1ccc(-c2nc3ccccc3c(=O)n2-c2ccc(C(=O)NN3C(=O)CSC3c3ccc(F)cc3)cc2)cc1", "strain or isolate": "MTCC 227", "endpoint": "MIC10", "result": "250 µg/mL"}
{"compound": "C[C@@H](c1nc(-c2ccc(C#N)cc2)cs1)[C@](O)(Cn1cnnc1)c1ccc(F)cc1F", "strain or isolate": "A28235", "endpoint": "MFC99", "result": ">16 µg/mL"}
{"compound": "CCCCCCCCCCCn1cc[n+](COCCCCOC[n+]2ccn(CCCCCCCCCCC)c2)c1", "read by": "agar diffusion", "strain or isolate": "ATCC 90028", "endpoint": "MIC100", "result": "8 µM"}
{"compound": "O=C(Nc1cccc(Cn2ccnc2)c1)c1ccc(Cl)cc1Cl", "strain or isolate": "27 strains", "endpoint": "Mean MIC", "result": "119 µg/mL"}
{"compound": "CCCCCCCCCn1cc[n+](COCCOC[n+]2ccn(CCCCCCCCC)c2)c1", "read by": "agar diffusion", "strain or isolate": "ATCC 90028", "endpoint": "MIC100", "result": "2 µM"}
{"compound": "CCC(C)CCCCCCCCCCC(=O)N[C@H]1C[C@@H](O)[C@@H](O)NC(=O)C2[C@@H](O)[C@@H](C)CN2C(=O)C(CO)NC(=O)C([C@H](O)C(O)c2ccc(O)cc2)NC(=O)NC(=O)[C@@H]2C[C@@H](O)CN2C(=O)[C@H]([C@@H](C)O)NC1=O", "read by": "agar", "dose": "1 mg/mL", "strain or isolate": "IV", "endpoint": "zone", "result": "29 mm"}
{"compound": "CCCCCCCCCCCCCCCCn1cc[n+](COCCCCCCOC[n+]2ccn(CCCCCCCCCCCCCCCC)c2)c1", "read by": "agar diffusion", "strain or isolate": "ATCC 90028", "endpoint": "MIC100", "result": "100 µM"}
{"compound": "Cc1c(Br)cccc1-c1nnc(CN2CCC(n3nc4ccccc4n3)CC2)o1", "dose": "1200 µg/mL", "endpoint": "zone", "result": "17.85 mm"}
{"compound": "CCC(C)CC(C)CCCCCCCCC(=O)N[C@H]1C[C@@H](O)[C@H](NCCN)NC(=O)[C@@H]2[C@@H](O)CCN2C(=O)[C@H]([C@H](O)CCN)NC(=O)[C@H]([C@H](O)[C@@H](O)c2ccc(O)cc2)NC(=O)[C@@H]2C[C@@H](O)CN2C(=O)[C@H]([C@@H](C)O)NC1=O", "read by": "broth dilution", "setting": "pH 4", "strain or isolate": "10 isolates", "endpoint": "EC90", "result": "2 µg/mL"}
{"compound": "C/C=C/C1=CC2=CC(=O)[C@](C)(OC(=O)c3c(C)cc(O)cc3OC)C(=O)C2=CO1", "read by": "agar diffusion", "dose": "0.1 µg/disc", "strain or isolate": "ATCC 64548", "endpoint": "zone", "result": "0 mm"}
{"compound": "Brc1ccccc1-c1nnc(CN2CCC(n3nc4ccccc4n3)CC2)o1", "dose": "600 µg/mL", "endpoint": "zone", "result": "4.03 mm"}
{"compound": "Cc1ccc(N=Nc2ccc(O)c(C[N+](C)(C)COC3CCCCCCCCCCC3)c2)cc1", "endpoint": "MBC", "result": "1994 µM"}
{"compound": "O=C(Nc1ccc(Cn2ccnc2)cc1)c1cccc([N+](=O)[O-])c1", "strain or isolate": "27 strains", "endpoint": "Mean MIC", "result": "91.96 µg/mL"}
{"compound": "Clc1nssc1=Nc1ccc2ncccc2c1", "strain or isolate": "ATCC 10231", "endpoint": "MFC99", "result": "16 µg/mL"}
{"compound": "CCCCCOC[N+](C)(C)Cc1cc(N=Nc2ccc(C)cc2)ccc1O", "endpoint": "MBC", "result": "308 µM"}
{"compound": "COc1ccccc1/C=C1\\SC(c2ccc(F)cc2)N(NC(=O)c2ccc(-n3c(-c4ccc(C)cc4)nc4ccccc4c3=O)cc2)C1=O", "strain or isolate": "MTCC 227", "endpoint": "MIC1000", "result": "1000 µg/mL"}
{"compound": "Cc1c(CN2CCN(C)CC2)cc(-c2ccc(Cl)cc2)n1-c1ccc(Cl)cc1", "strain or isolate": "20 strains", "endpoint": "Mean MIC", "result": "57.3 µg/mL"}
{"compound": "C=CCSS(=O)CC=C", "read by": "broth dilution", "strain or isolate": "Clinical Isolate 3109", "endpoint": "MIC50", "result": "1.56 µg/mL"}
{"compound": "CC(C)CC(O)C(=O)O", "read by": "broth dilution / visual reading", "strain or isolate": "D 17", "endpoint": "MFC100", "result": "72000 µg/mL"}
{"compound": "Clc1nssc1=Nc1ccccc1", "strain or isolate": "ATCC 10231", "endpoint": "MFC99", "result": "16 µg/mL"}
{"compound": "CCC(C)n1ncn(-c2ccc(N3CCN(c4ccc(OC[C@H]5CO[C@](Cn6cncn6)(c6ccc(Cl)cc6Cl)O5)cc4)CC3)cc2)c1=O", "strain or isolate": "MTCC 227", "endpoint": "MIC99", "result": "100 µg/mL"}
{"compound": "Nc1[nH]c(=O)ncc1F", "read by": "broth dilution", "setting": "pH 7", "strain or isolate": "10 isolates", "endpoint": "EC90", "result": "2 µg/mL"}
{"compound": "Cc1c(Cn2ccnc2)cc(-c2ccc(Cl)cc2)n1-c1ccccc1", "strain or isolate": "20 strains", "endpoint": "Mean MIC", "result": "50.7 µg/mL"}
{"compound": "CCC(C)CCCCCCCCCCC(=O)N[C@H]1C[C@@H](O)[C@@H]([n+]2cc[nH]c2)NC(=O)C2[C@@H](O)[C@@H](C)CN2C(=O)C(CO)NC(=O)C([C@H](O)C(O)c2ccc(O)cc2)NC(=O)NC(=O)[C@@H]2C[C@@H](O)CN2C(=O)[C@H]([C@@H](C)O)NC1=O", "read by": "agar", "dose": "5 mg/mL", "strain or isolate": "IV", "endpoint": "zone", "result": "24 mm"}
{"compound": "CCCCCCCCn1cc[n+](COCCCCCOC[n+]2ccn(CCCCCCCC)c2)c1", "read by": "agar diffusion", "strain or isolate": "ATCC 90028", "endpoint": "MIC100", "result": "71 µM"}
{"compound": "CCc1nc(CCC(=O)O)cnc1CCC(=O)O", "read by": "turbidity", "strain or isolate": "ATCC 10231", "endpoint": "MIC", "result": ">128 µg/mL"}
{"compound": "Clc1ccccc1CNc1cccc(Cn2ccnc2)c1", "strain or isolate": "27 strains", "endpoint": "Mean MIC", "result": "81.5 µg/mL"}
{"compound": "Cc1ccc(N=Nc2ccc(O)c(C[N+](C)(C)COC3CCCCCCC3)c2)cc1", "endpoint": "MBC", "result": "70 µM"}
{"compound": "Cc1c(CNc2ccccc2)cc(-c2ccccc2)n1-c1ccc(Cl)cc1Cl", "strain or isolate": "20 strains", "endpoint": "Mean MIC", "result": ">200 µg/mL"}
{"compound": "O=[N+]([O-])c1ccc(-c2nnc(CN3CCC(n4nc5ccccc5n4)CC3)o2)cc1Cl", "dose": "600 µg/mL", "endpoint": "zone", "result": "6.25 mm"}
{"compound": "CCCCCCCCCCOC[N+](C)(C)Cc1cc(N=Nc2ccc(Cl)cc2)ccc1O", "endpoint": "MBC", "result": "1008 µM"}
{"compound": "Clc1nssc1=Nc1cccc2ccccc12", "strain or isolate": "ATCC 10231", "endpoint": "MFC99", "result": "16 µg/mL"}
{"compound": "CCC(C)CCCCCCCCCCC(=O)N[C@H]1C[C@@H](O)[C@@H](S(=O)(=O)CC(=O)OC)NC(=O)C2[C@@H](O)[C@@H](C)CN2C(=O)C(CO)NC(=O)C([C@H](O)C(O)c2ccc(O)cc2)NC(=O)NC(=O)[C@@H]2C[C@@H](O)CN2C(=O)[C@H]([C@@H](C)O)NC1=O", "read by": "agar", "dose": "5 mg/mL", "strain or isolate": "IV", "endpoint": "zone", "result": "24 mm"}
{"compound": "C[N+](C)(COCCC1CCCCC1)Cc1cc(N=Nc2ccc(Cl)cc2)ccc1O", "endpoint": "MBC", "result": "66 µM"}
{"compound": "C[C@@H](c1ncncc1F)[C@](O)(Cn1cncn1)c1ccc(F)cc1F", "read by": "broth dilution", "setting": "pH 4", "strain or isolate": "15 isolates", "endpoint": "EC90", "result": "0.03 µg/mL"}
{"compound": "O=c1c(OC2CCCC2)c(N2CCN(S(=O)(=O)NCc3ccccc3)CC2)cnn1-c1cccc(Cl)c1", "read by": "broth dilution", "strain or isolate": "C375", "endpoint": "MIC", "result": "32 µg/mL"}
{"compound": "Cc1ccc(N=Nc2ccc(O)c(C[N+](C)(C)COCCCC3CCCCC3)c2)cc1", "endpoint": "MBC", "result": "272 µM"}
{"compound": "C[C@H]1[C@H](O)[C@@H](C)/C=C/C=C/C=C/C=C/C=C/C=C/C=C/[C@H](O[C@@H]2O[C@H](C)[C@@H](O)[C@H](N)[C@@H]2O)C[C@@H]2O[C@](O)(C[C@@H](O)C[C@@H](O)CC[C@H](O)[C@@H](O)C[C@@H](O)CC(=O)O[C@H]1C)C[C@H](O)[C@H]2C(=O)O", "read by": "broth dilution", "dose": "1 µg/mL", "changes": "efg1", "strain or isolate": "ATCC 90028", "endpoint": "inhibition", "result": "100%"}
{"compound": "C=CCc1ccc(O)c(OC)c1", "read by": "turbidity", "strain or isolate": "ATCC 44829", "endpoint": "MIC90", "result": "480 µg/mL"}
{"compound": "CCCCCCCCCCn1cc[n+](COCCCCCCOC[n+]2ccn(CCCCCCCCCC)c2)c1", "read by": "agar diffusion", "strain or isolate": "ATCC 90028", "endpoint": "MIC100", "result": "2 µM"}
{"compound": "Cc1c(CNc2ccccc2)cc(-c2ccc(Cl)cc2)n1-c1ccccc1", "strain or isolate": "20 strains", "endpoint": "Mean MIC", "result": ">200 µg/mL"}
{"compound": "CCCCCCCCCCCCCCn1cc[n+](COCCOC[n+]2ccn(CCCCCCCCCCCCCC)c2)c1", "read by": "agar diffusion", "strain or isolate": "ATCC 90028", "endpoint": "MIC100", "result": "16 µM"}
{"compound": "Clc1ccc(C(Cn2ccnc2)OCc2csc3c(Cl)cccc23)c(Cl)c1", "read by": "absorbance", "setting": "48 h", "strain or isolate": "63 isolates", "endpoint": "MIC90", "result": "2 µg/mL"}
{"compound": "Cc1c(CN2CCN(C)CC2)cc(-c2ccccc2)n1-c1ccccc1", "strain or isolate": "20 strains", "endpoint": "Mean MIC", "result": "255 µg/mL"}
{"compound": "C[C@H](O)Cc1cc2c(O[C@H]3O[C@H](CO)[C@@H](O)[C@H]3O)ccc(O)c2c(=O)o1", "read by": "turbidity", "strain or isolate": "ATCC 32354", "endpoint": "MIC", "result": ">128 µg/mL"}
{"compound": "CC(C)CC(=O)C(=O)O", "read by": "broth dilution", "strain or isolate": "D 17", "endpoint": "MFC100", "result": ">72000 µg/mL"}
{"compound": "O=C(Nc1cccc(Cn2ccnc2)c1)c1cccc(Cl)c1", "strain or isolate": "27 strains", "endpoint": "Mean MIC", "result": "167 µg/mL"}
{"compound": "Cc1ccc(C(C)C)cc1O", "strain or isolate": "ATCC 10231", "endpoint": "MLC", "result": "0.16–0.32 µg/mL"}
{"compound": "Cc1ccc(-c2ccccc2)n1-c1ccc(Cl)cc1", "strain or isolate": "20 strains", "endpoint": "Mean MIC", "result": ">200 µg/mL"}
{"compound": "COc1ccccc1N=c1ssnc1Cl", "strain or isolate": "ATCC 10231", "endpoint": "MFC99", "result": "16 µg/mL"}
{"compound": "CC(C)CC1NC(=O)CC(CCCCCCCCC(C)O)OC(=O)C(CC(C)C)NC(=O)C(CC(C)C)NC(=O)C(CC(C)C)NC(=O)C(C(C)C)NC(=O)C(CC(=O)O)NC(=O)C(CC(C)C)NC1=O", "read by": "visual reading", "strain or isolate": "ATCC 10231", "endpoint": "MFC", "result": "2 µg/mL"}
{"compound": "COC(=O)[C@H]1[C@@H]2C[C@@H](O[C@@H]3O[C@H](C)[C@@H](O)[C@H](N)[C@@H]3O)/C=C/C=C/C=C/C=C/C=C/C=C/C=C/[C@H](C)[C@@H](O)[C@H](C)[C@H](C)OC(=O)C[C@H](O)C[C@H](O)[C@@H](O)CC[C@H](O)C[C@H](O)C[C@](O)(C[C@@H]1O)O2", "read by": "broth dilution", "setting": "pH 5", "strain or isolate": "15 isolates", "endpoint": "EC90", "result": "4 µg/mL"}
{"compound": "OC(Cn1cncn1)(Cn1cncn1)c1ccc(F)cc1F", "strain or isolate": "TIMM3164 (azole-resistant)", "endpoint": "MIC80", "result": "1 µg/mL"}
{"compound": "CCCCCCCCCCCCOC[N+](C)(C)Cc1cc(N=Nc2ccc(C)cc2)ccc1O", "endpoint": "MBC", "result": "1986 µM"}
{"compound": "CC(C)S(=O)(=O)N1CCN(c2cnn(-c3cc(F)cc(F)c3)c(=O)c2OC2CCC(F)C2)CC1", "read by": "broth dilution", "strain or isolate": "C294", "endpoint": "MIC", "result": "0.125 µg/mL"}

Repeating the first 6 entries:

compound,read by,dose,setting,changes,strain or isolate,endpoint,result
Fc1cccc(-c2nnc(CN3CCC(n4nc5ccccc5n4)CC3)o2)c1F,,600 µg/mL,,,,zone,5.25 mm
Cc1cc(CN(C)C)c(C)n1-c1ccc(Cl)cc1,,,,,20 strains,Mean MIC,200 µg/mL
CCCCCCOC[N+](C)(C)Cc1cc(N=Nc2ccc(C)cc2)ccc1O,,,,,,MBC,38 µM
CCC(C)CCCCCCCCCCC(=O)N[C@H]1C[C@@H](O)[C@@H](Sc2ccccc2)NC(=O)C2[C@@H](O)[C@@H](C)CN2C(=O)C(CO)NC(=O)C([C@H](O)C(Sc2ccccc2)c2ccc(O)cc2)NC(=O)NC(=O)[C@@H]2C[C@@H](O)CN2C(=O)[C@H]([C@@H](C)O)NC1=O,agar,5 mg/mL,,,IV,zone,18 mm
Cc1ccc(-c2nc3ccccc3c(=O)n2-c2ccc(C(=O)NN3C(=O)CSC3c3ccc(F)cc3)cc2)cc1,,,,,MTCC 227,MIC10,250 µg/mL
C[C@@H](c1nc(-c2ccc(C#N)cc2)cs1)[C@](O)(Cn1cnnc1)c1ccc(F)cc1F,,,,,A28235,MFC99,>16 µg/mL